Results as given in the supplement of paper PMC9931576.
Human monoclonal antibodies against the spike receptor-binding domain (heavy:light variable regions). IC50 against pseudoviruses bearing the spike of naturally observed variants; lower = stronger; >10 µg/ml means not reached at the top dose. No active / inactive call. The stated detection limit is 0.0005 µg/ml; values near or below 0.001 µg/ml lie at the floor of the assay.

Assays:
Experiment in all cases: pseudovirus neutralization IC50; higher = weaker neutralization
[1] = target: SARS-CoV-2 Omicron BA.1 spike pseudovirus
Protocol: (§1)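 Single-round VSV luciferase pseudovirus mixed with antibody dilutions for 1 h and put on Huh-7 cells for about a day; IC50 from the dose curve.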

[2] = target: SARS-CoV-2 Omicron BA.2 spike pseudovirus
Protocol: as §1

[3] = target: SARS-CoV-2 Omicron BA.2.75 spike pseudovirus
Protocol: as §1

[4] = target: SARS-CoV-2 Omicron BA.5 spike pseudovirus
Protocol: as §1

[5] = target: SARS-CoV-2 Omicron BQ.1.1 spike pseudovirus
Protocol: as §1

[6] = target: SARS-CoV-2 Omicron XBB spike pseudovirus
Protocol: as §1

[7] = target: SARS-CoV-2 early D614G spike pseudovirus
Protocol: as §1

Row | Binder | pseudovirus neutralization IC50 [1] [µg/mL] | pseudovirus neutralization IC50 [2] [µg/mL] | pseudovirus neutralization IC50 [3] [µg/mL] | pseudovirus neutralization IC50 [4] [µg/mL] | pseudovirus neutralization IC50 [5] [µg/mL] | pseudovirus neutralization IC50 [6] [µg/mL] | pseudovirus neutralization IC50 [7] [µg/mL]
1 | BD55-5486 (protein) chain 1: EVQLVETGGGLVQPGGSLRLSCAASDFVVGGNDMSWVRQAPGKGLEWVSGIYSGDTTFYADSVKGRFTISRDRTKNTLYLEMNSLRPEDTAIYYCASQVAGTFDYWGRGAQVTVSS chain 2: DIQMTQSPSSLSASVGDRVTITCRASQGISNSVAWYQQTPGKAPKLLLYAASRLASGVPSRFSGSGSGTDFTLTISSLQPEDFATYYCQQYYGTPLFGQGTKV | > 10 | > 10 | > 10 | > 10 | > 10 | > 10 | 0.381
2 | BD55-1066 (protein) chain 1: EVQLVESGGGLVQPGGSLRLSCSASGFTFNKYPMYWVRQDPGKGLAYVSGISSYGDIADYADSVKGRFTISRDNSKNTLYLQMSSLRAEDTAVYYCVKDSGLNSMVVVMEIWGQGTLVTVSS chain 2: DIRMTQSPSSLSASVGDRLTITCRASQTISQYLNWFQQKPGKAPRLLIFGASSLQNGVPSRFSGSGSGTDFTLTISSLQPEDFATYYCQQSYTNPPTFGGGTKVEIK | > 10 | > 10 | > 10 | > 10 | > 10 | > 10 | > 10
3 | BD55-5512 (protein) chain 1: QVQLVESGGGVVQPGRSLRLSCAASGFIFSSYVMHWVRQPPGKGLEWVAVISYDGRNKYYADSVKGRFTISRDNSKDTLYLQMNSLRPEDTAVYYCARDMGGLKDSGDFELDYWGQGTLVTVSS chain 2: QSVLTQPPSASGTPGQRVTISCSGSSSNIGNNYVYWYQQLPGTAPKLLIYRGNQRPSGVPDRFSGSKSGTSASLAISGLRSEDEAEYYCAAWDDSLSGQGVFGGGTKLTVL | > 10 | > 10 | > 10 | > 10 | > 10 | > 10 | 0.0316
4 | BD55-5514 (protein) chain 1: QVQLVQSGAEVKKPGSSVKVSCKASGGTFRSHVISWVRQAPGQGLEWMGGFIPLFGTTIYAQAFQGRVMISADESTSTAYMELSSLRSEDTAVYFCARLFPNGDPNSPEDGFDIWGQGTLVTVSA chain 2: DIQMTQSPSSLSASVGDRVTITCQASQDIGNYLNWYQQKPGKAPKLLIYDASHLETGVPSRFSGSGSGTDFTFTISSLQPEDIATYYCQRYDDLPSYTFGQGTKVEIK | 0.00169 | 0.00722 | 0.00434 | 0.00504 | 0.00478 | 0.00598 | 0.0107
5 | BD55-5516 (protein) chain 1: QVRLVQSGAEVKKPGSSVKVSCEASGGTLSNHVINWVRQAPGQGFEYMGGIVPVFGPPNYAQKFQGRVTITADTSTNTVYLELNSLRSDDTAVYFCARDAASPTYSGYDWLSPGWFDPWGQGTLVTVSS chain 2: DIVMTQSPDSLAVSLGERATINCKSSQSVLYSSNNKNHLAWYQQKPGLPPRLLIYWASTRESGVPDRFGGSGSGTDFTLTISSLQAEDAAVYYCQQYYSPPLTFGGGTKVEIK | 0.367 | > 10 | > 10 | > 10 | > 10 | > 10 | 0.0557
6 | BD55-5519 (protein) chain 1: EVQLLESGGGLVQPGGSLRLSCAASGFTLRSYAMNWVRQAPGKGLEWVSGLGAGGDIRTYSDSVKGRFTISRDDAKNTLFLQMNSLRAEDTAVYFCAKDLGGNVWYDVFEIWGRGTMVTVSS chain 2: DIQLTQSPSSLSASVGDRVTITCRASQSISNYLNWYQQKVGKAPKLLIYAASSLQSGVPSRFSGSGSGTDFTLTISSLQPEDFATYYCQQSYNTPALTFGGGTTVEI | > 10 | > 10 | > 10 | > 10 | > 10 | > 10 | > 10
7 | BD55-5524 (protein) chain 1: QVQLVQSGSELKKPGASVKVSCKASGYSFSTHAMNWVRQAPGQGLEWMGWIDTNTGNPTYAPGFAGRFVFSLDTSLHSAYLEISGLQADDTAVYYCAREGVAAQYYYYVMDVWGQGTTVTVSS chain 2: DIQLTQSPSFLSASVGDRVTITCRASQGIGDYLAWYQQKPGKAPQLLIYAASTLQSGVPSRFSGSESGTEFTLTISSLQPEDFAIYYCQQLNTYPVAFGQGTRVEIK | > 10 | > 10 | > 10 | > 10 | > 10 | > 10 | > 10
8 | BD-504 (protein) chain 1: EVQLVESGGGLVQPGGSLRLSCAASGITVRSNYMSWVRQAPGKGLEWVSVIYSGGSTFYADSVKGRFTISRDNSKNTLYLQMNSLRAEDTAVYYCARDLISRGMDVWGQGTTVTVSS chain 2: DIQLTQSPSSLSASVGDRVTITCRASQGISSYLAWYQQKPGKAPKLLIYAASTLQSGVPSRFSGSGSGTDFTLTISSLQPEDFATYYCQQLNGYPHSAFGPGTKVDIK | > 10 | > 10 | > 10 | > 10 | > 10 | > 10 | 0.033
9 | BD55-5537 (protein) chain 1: QVQLVESGGGVVQPGRSLRLSCAASGFSFSNSGMHWVRQAPGKGLEWVAVISFDGSNQFYADPVKGRFTISRDNSKNTLYLQMNSLRVEDTAVYYCATPIREYSGYDVFDYYDGLDVWGQGTTLTVSS chain 2: QSVLTQPPSASGTPGQRVTISCSGSSSNIGRDYVYWYQQFPGTAPKLLIHRNDQRPSGVPDRFSGSKSGTSASLAISWLRPEDEADYYCAAWDASLSAWVFGGGTKLTVL | > 10 | > 10 | > 10 | > 10 | > 10 | > 10 | 0.088
10 | BD55-5549 (protein) chain 1: QLQLQESGPGLVKPSETLSLTCTVSGASITSSDSYWGWIRQPPGKGLEWIGSIYYTGSAYKSPPLKSRVTMSVDTSKNQFSLKVTSLTAADTAVYYCARGRGSPPHYYFYFGLDVWGQGTTVSVS chain 2: SYELTQPPSVSVSPGQTATITCSGTALPNHYAYWYQQKPGQAPVLVIYTDNERPSGIPERFSGSTSGTTVTLTISGVQAEDEADYYCQSADSNANVVFGGGTKLTVL | 0.0265 | 0.0576 | 0.033 | 0.0363 | > 10 | > 10 | 0.0011
11 | BD55-5551 (protein) chain 1: EVQLVESGGGLVKPGRSLRLSCSASGFNFGDYAMSWLRQAPGKGLEWLGFIRSKPSGGTTEYAASVDGRFAMSRDDSKSLAYLQMNSLKTEDTAVYYCTRAHYYYGSRGGHLYFDYWGQGTLVTVSS chain 2: DIQMTQSPSSLSASVGDRVTITCQASQDITNYLSWYQQIPGKAPKLLIYDASNLETGVPSRFSGSGSGTDFTFTISSLQPEDVATYFCQQYDNLPVTFGQGTKLEIK | > 10 | > 10 | > 10 | > 10 | > 10 | > 10 | > 10
12 | BD55-5555 (protein) chain 1: EVQLVESGGGLIQPGGSLRLSCAVSGFSMNSNYMTWVRQAPGKGLEWISVVYNGGGTYYADSVKGRFTISRDIPNNTLYLQMSSLRAEDTAMYYCARGNNYGDDWFDPWGQGTQVTVSS chain 2: EIVLTQSPATLSLSPGDRATLSCRASQSDNRYLAWYQQKPGQAPRLLIYDVSNRATAIPARFSGSGSGTEFTLTISNLEPEDFAVYYCQQRNKWPPTFTFGQGTKLEIK | > 10 | > 10 | > 10 | > 10 | > 10 | > 10 | > 10
